Test results as given in patent publication US20220033460A1, “IDENTIFICATION AND USE OF T CELL EPITOPES IN DESIGNING DIAGNOSTIC AND THERAPEUTIC APPROACHES FOR COVID-19” (priority 2020, published 2022).

B1: TCR_40: TCR to … / A*24:02 (protein)
TCR alpha: SQQPVQSPQAVILREGEDAVINCSSSKALYSVHWYRQKHGEAPIFLMILLKGGEQKGHDKISASFNEKKQQSSLYLTASQLSYSGTYFCGTESPGNNDMRFGAGTRLTVKPNIQNPDPAVYQLRDSKSSDKSVCLFTDFDSQTNVSQSKDSDVYITDKTVLDMRSMDFKSNSAVAWSNKSDFACANAFNNSIIPEDTFFPSPESSCDVKLVEKSFETDTNLNFQNLSVIGFRILLLKVAGFNLLMTLRLWSS
TCR beta: MGPGLLCWVLLCLLGAGSVETGVTQSPTHLIKTRGQQVTLRCSSQSGHNTVSWYQQALGQGPQFIFQYYREEENGRGNFPPRFSGLQFPNYSSELNVNALELDDSALYLCASSSSALEDPEQYFGPGTRLTVTEDLKNVFPPKVAVFEPSEAEISHTQKATLVCLATGFYPDHVELSWWVNGKEVHSGVSTDPQPLKEQPALNDSRYCLSSRLRVSATFWQNPRNHFRCQVQFYGLSENDEWTQDRAKPVTQIVSAEAWGRADCGFTSESYQQGVLSATILYEILLGKATLYAVLVSALVLMAMVKRKDSRG
B2: TCR_43: TCR to … / A*02:01 (protein)
TCR alpha: QKEVEQNSGPLSVPEGAIASLNCTYSDRGSQSFFWYRQYSGKSPELIMFIYSNGDKEDGRFTAQLNKASQYVSLLIRDSQPSDSATYLCAAGRDDKIIFGKGTRLHILPNIQNPDPAVYQLRDSKSSDKSVCLFTDFDSQTNVSQSKDSDVYITDKTVLDMRSMDFKSNSAVAWSNKSDFACANAFNNSIIPEDTFFPSPESSCDVKLVEKSFETDTNLNFQNLSVIGFRILLLKVAGFNLLMTLRLWSS
TCR beta: NAGVTQTPKFRVLKTGQSMTLLCAQDMNHEYMYWYRQDPGMGLRLIHYSVGEGTTAKGEVPDGYNVSRLKKQNFLLGLESAAPSQTSVYFCASSSMTSGIRYEQYFGPGTRLTVTEDLKNVFPPKVAVFEPSEAEISHTQKATLVCLATGFYPDHVELSWWVNGKEVHSGVSTDPQPLKEQPALNDSRYCLSSRLRVSATFWQNPRNHFRCQVQFYGLSENDEWTQDRAKPVTQIVSAEAWGRADCGFTSESYQQGVLSATILYEILLGKATLYAVLVSALVLMAMVKRKDSRG
B3: TCR_41: TCR to … / A*01:01 (protein)
TCR alpha: GESVGLHLPTLSVQEGDNSIINCAYSNSASDYFIWYKQESGKGPQFIIDIRSNMDKRQGQRVTVLLNKTVKHLSLQIAATQPGDSAVYFCAASTGGQKLLFARGTMLKVDLNIQNPDPAVYQLRDSKSSDKSVCLFTDFDSQTNVSQSKDSDVYITDKTVLDMRSMDFKSNSAVAWSNKSDFACANAFNNSIIPEDTFFPSPESSCDVKLVEKSFETDTNLNFQNLSVIGFRILLLKVAGFNLLMTLRLWSS
TCR beta: MGPGLLCWVLLCLLGAGSVETGVTQSPTHLIKTRGQQVTLRCSSQSGHNTVSWYQQALGQGPQFIFQYYREEENGRGNFPPRFSGLQFPNYSSELNVNALELDDSALYLCASSDLAQYLNTGELFFGEGSRLTVLEDLKNVFPPKVAVFEPSEAEISHTQKATLVCLATGFYPDHVELSWWVNGKEVHSGVSTDPQPLKEQPALNDSRYCLSSRLRVSATFWQNPRNHFRCQVQFYGLSENDEWTQDRAKPVTQIVSAEAWGRADCGFTSESYQQGVLSATILYEILLGKATLYAVLVSALVLMAMVKRKDSRG
B4: TCR_47: TCR to … / A*02:01 (protein)
TCR alpha: RKEVEQDPGPFNVPEGATVAFNCTYSNSASQSFFWYRQDCRKEPKLLMSVYSSGNEDGRFTAQLNRASQYISLLIRDSKLSDSATYLCVVNSGNTPLVFGKGTRLSVIANIQNPDPAVYQLRDSKSSDKSVCLFTDFDSQTNVSQSKDSDVYITDKTVLDMRSMDFKSNSAVAWSNKSDFACANAFNNSIIPEDTFFPSPESSCDVKLVEKSFETDTNLNFQNLSVIGFRILLLKVAGFNLLMTLRLWSS
TCR beta: NAGVTQTPKFQVLKTGQSMTLQCAQDMNHNSMYWYRQDPGMGLRLIYYSASEGTTDKGEVPNGYNVSRLNKREFSLRLESAAPSQTSVYFCASSYLYRVAGELFFGEGSRLTVLEDLKNVFPPKVAVFEPSEAEISHTQKATLVCLATGFYPDHVELSWWVNGKEVHSGVSTDPQPLKEQPALNDSRYCLSSRLRVSATFWQNPRNHFRCQVQFYGLSENDEWTQDRAKPVTQIVSAEAWGRADCGFTSESYQQGVLSATILYEILLGKATLYAVLVSALVLMAMVKRKDSRG
B5: TCR_44: TCR to … / A*24:02 (protein)
TCR alpha: AQKVTQAQTEISVVEKEDVTLDCVYETRDTTYYLFWYKQPPSGELVFLIRRNSFDEQNEISGRYSWNFQKSTSSFNFTITASQVVDSAVYFCALSVRIQGAQKLVFGQGTRLTINPNIQNPDPAVYQLRDSKSSDKSVCLFTDFDSQTNVSQSKDSDVYITDKTVLDMRSMDFKSNSAVAWSNKSDFACANAFNNSIIPEDTFFPSPESSCDVKLVEKSFETDTNLNFQNLSVIGFRILLLKVAGFNLLMTLRLWSS
TCR beta: AAGVIQSPRHLIKEKRETATLKCYPIPRHDTVYWYQQGPGQDPQFLISFYEKMQSDKGSIPDRFSAQQFSDYHSELNMSSLELGDSALYFCASSLYEDRANWEQYFGPGTRLTVTEDLKNVFPPKVAVFEPSEAEISHTQKATLVCLATGFYPDHVELSWWVNGKEVHSGVSTDPQPLKEQPALNDSRYCLSSRLRVSATFWQNPRNHFRCQVQFYGLSENDEWTQDRAKPVTQIVSAEAWGRADCGFTSESYQQGVLSATILYEILLGKATLYAVLVSALVLMAMVKRKDSRG
B6: TCR_39: TCR to … / A*02:01 (protein)
TCR alpha: QLLEQSPQFLSIQEGENLTVYCNSSSVFSSLQWYRQEPGEGPVLLVTVVTGGEVKKLKRLTFQFGDARKDSSLHITAAQPGDTGLYLCAGARSGNTGKLIFGQGTTLQVKPDIQNPDPAVYQLRDSKSSDKSVCLFTDFDSQTNVSQSKDSDVYITDKTVLDMRSMDFKSNSAVAWSNKSDFACANAFNNSIIPEDTFFPSPESSCDVKLVEKSFETDTNLNFQNLSVIGFRILLLKVAGFNLLMTLRLWSS
TCR beta: GAGVSQSPRYKVTKRGQDVALRCDPISGHVSLYWYRQALGQGPEFLTYFNYEAQQDKSGLPNDRFSAERPEGSISTLTIQRTEQRDSAMYRCASSLGPGQGYNEQFFGPGTRLTVLEDLKNVFPPKVAVFEPSEAEISHTQKATLVCLATGFYPDHVELSWWVNGKEVHSGVSTDPQPLKEQPALNDSRYCLSSRLRVSATFWQNPRNHFRCQVQFYGLSENDEWTQDRAKPVTQIVSAEAWGRADCGFTSESYQQGVLSATILYEILLGKATLYAVLVSALVLMAMVKRKDSRG
B7: TCR_42: TCR to … / B*07:02 (protein)
TCR alpha: RKEVEQDPGPFNVPEGATVAFNCTYSNSASQSFFWYRQDCRKEPKLLMSVYSSGNEDGRFTAQLNRASQYISLLIRDSKLSDSATYLCVVNKDNDMRFGAGTRLTVKPNIQNPDPAVYQLRDSKSSDKSVCLFTDFDSQTNVSQSKDSDVYITDKTVLDMRSMDFKSNSAVAWSNKSDFACANAFNNSIIPEDTFFPSPESSCDVKLVEKSFETDTNLNFQNLSVIGFRILLLKVAGFNLLMTLRLWSS
TCR beta: NAGVTQTPKFRVLKTGQSMTLLCAQDMNHEYMYWYRQDPGMGLRLIHYSVGEGTTAKGEVPDGYNVSRLKKQNFLLGLESAAPSQTSVYFCASQDINTGELFFGEGSRLTVLEDLKNVFPPKVAVFEPSEAEISHTQKATLVCLATGFYPDHVELSWWVNGKEVHSGVSTDPQPLKEQPALNDSRYCLSSRLRVSATFWQNPRNHFRCQVQFYGLSENDEWTQDRAKPVTQIVSAEAWGRADCGFTSESYQQGVLSATILYEILLGKATLYAVLVSALVLMAMVKRKDSRG
B8: TCR_48: TCR to … / A*24:02 (protein)
TCR alpha: SLAKTTQPISMDSYEGQEVNITCSHNNIATNDYITWYQQFPSQGPRFIIQGYKTKVTNEVASLFIPADRKSSTLSLPRVSLSDTAVYYCLVGGWVSGGSYIPTFGRGTSLIVHPYIQNPDPAVYQLRDSKSSDKSVCLFTDFDSQTNVSQSKDSDVYITDKTVLDMRSMDFKSNSAVAWSNKSDFACANAFNNSIIPEDTFFPSPESSCDVKLVEKSFETDTNLNFQNLSVIGFRILLLKVAGFNLLMTLRLWSS
TCR beta: EPEVTQTPSHQVTQMGQEVILRCVPISNHLYFYWYRQILGQKVEFLVSFYNNEISEKSEIFDDQFSVERPDGSNFTLKIRSTKLEDSAMYFCASKTGGAAKNIQYFGAGTRLSVLEDLKNVFPPKVAVFEPSEAEISHTQKATLVCLATGFYPDHVELSWWVNGKEVHSGVSTDPQPLKEQPALNDSRYCLSSRLRVSATFWQNPRNHFRCQVQFYGLSENDEWTQDRAKPVTQIVSAEAWGRADCGFTSESYQQGVLSATILYEILLGKATLYAVLVSALVLMAMVKRKDSRG

Each molecule was assayed on CD8+ T cells. Details: cells of the TCR clonotype specific for the epitope / HLA class I of the same line.
Type: cell-based, human

Molecule	No. of Cells
B1	3
B2	3
B3	3
B4	3
B5	3
B6	3
B7	3
B8	3
